Experimental data reported in US20180016348A1 (Janssen / Centocor, published 2018).

How the values were obtained:
Assay in all cases: cell-based or functional assay
[1] = biological target: T1, neuraminidase (NA) of H1N1 A/Mississippi/3/2001 H274Y (influenza A virus H1N1 …)
[2] = biological target: human FcγRIIIa receptor (V158) (human, UniProt P08637 17-254)
[3] = biological target: T1, neuraminidase (NA) of H1N1 …; remark: listed apart in the source

Binder	EC50 of neuraminidase inhibition (NA-XTD assay, whole virus) [1] [µg/mL]	ADCC reporter EC50; A549 targets infected with H1N1 A/Mississippi/03/2001 H274Y [2] [µg/mL]	IC50 of virus neutralization (VNA on MDCK cells) [3] [µg/mL]
CR12042 (antibody, V domains shown) VH: EVQLVESGAEVRKPGSSVKVSCTASGDTFSSYTITWVRQAPGQGLEWMGEIIPIFGTANYAQKFQGRVTLTADESTTTAYMDLSSLRSEDTAVYYCARGPDNHSDRYFYYGMDVWGQGTTVTVSS VL: EIVLTQSPLSLPVTPGEPASISCRSSQSLLHSTGNNYLDWYLQKPGQSPQLLIYLGSNRASGVPDRFSGSGSGTDFTLKISRVEAEDVGVYYCMQALQTPRTFGQGTKVDIK	0.15	0.16	0.48
CR12040 (antibody, V domains shown) VH: QVQLVQSGAEVKKPGASVKVSCKASGYTFTNYYINWVRQAPGQGLEWMGRINPLHGGTGFAEKFQGRLTMTRDTSTSTVDMELSSLRSEDTAIYYCVKERDTTMATDYYGRSGCFDYWGQGTLVTVSS VL: EIVLTQSPATLSLSPGERATLSCRASQSVRSYLAWYQQKPGQAPRLLIYDASNRATGIPARFSGSGSGTDFSLTISSLEPEDFAVYYCQQRSNWPITFGQGTRLEIK		0.04	
